Results of unrelated studies side by side (data: NIAID ChemDB).

Common to all: target-level tests; species: HIV-1; target: Protease; read-out: inhibition

Blank or dashed fields: not listed here. Percent inhibition refers to the dose given; in toxicity tests it is the harm to the cells. Lines come from different laboratories, so protocols vary.

SMILES	strain or isolate	method	conditions	tested at	result
Cc1c(O)cccc1C(=O)N[C@@H](Cc1ccccc1)[C@H](O)C(=O)N1CSC(C)(C)[C@H]1C(=O)NCc1cccnc1	-	HPLC	-	0.05 µM	62.6%
CC(C)(C)NC(=O)[C@@H]1CCCN1C(=O)[C@@H](O)[C@H](Cc1ccccc1)NC(=O)[C@H](CC(N)=O)NC(=O)c1ccc2ccccc2n1	-	-	-	0.05 µM	72.7%
C[C@@H]1O[C@@H](Oc2c(-c3cc(O)c(O)c(O)c3)oc3cc(O)cc(O)c3c2=O)[C@H](O)[C@H](O)[C@H]1O	-	fluorescence	-	50 µg/mL	50.4%
Cc1cccc(C)c1OCC(=O)N[C@@H](Cc1ccccc1)[C@H](O)C(=O)N1CSC(C)(C)[C@H]1C(=O)NCc1cccnc1	-	HPLC	-	0.05 µM	86.8%
CC1=CC(C)(C)Nc2ccc(OC(=O)c3ccc4c(c3)OCO4)cc21	-	-	-	150 µM	36.42%
O=c1c(O)c(-c2ccc(O)c(O)c2)oc2c(O[C@@H]3O[C@H](CO)[C@@H](O)[C@H](O)[C@H]3O)c(O)cc(O)c12	-	fluorescence	-	50 µg/mL	51.2%
C=CCN1CC2(/C=C/c3ccccc3)CC(=O)CC(CO)(C1)C2O	-	HPLC	-	250 µM	77%
CC(C)(C)N[C@@H](Cc1ccccc1)C(=O)N[C@@H](Cc1ccccc1)[C@H](O)CNC[C@@H](O)[C@H](Cc1ccccc1)NC(=O)[C@H](Cc1ccccc1)NC(C)(C)C	-	HPLC	pH 5.5	10 µM	3%
CC(C)[C@H](NC(=O)OCc1cccnc1)C(=O)N[C@@H](Cc1ccccc1)[C@H](O)[C@H](O)[C@H](Cc1ccccc1)NC(=O)[C@@H](NC(=O)OCc1cccnc1)C(C)C	-	fluorescence	-	0.001 µM	69%
Cc1cccc(C)c1OCC(=O)N[C@@H](Cc1ccccc1)[C@H](O)C(=O)N1CSC(C)(C)[C@H]1C(=O)NC(C)(C)C	IIIB	-	-	0.05 µM	56%
CC(C)[C@H](NC(=O)c1ccncc1)C(=O)N[C@@H](Cc1ccccc1)C(O)[C@H](Cc1ccccc1)NC(=O)[C@@H](NC(=O)c1ccncc1)C(C)C	-	fluorescence	-	0.1 µM	82%
C=C(C)[C@@H]1CCC2[C@]3(CC[C@]4(C)[C@@H]([C@H](C)CC/C=C(/C)C(=O)O)CC[C@@]24C)C[C@]13CCC(=O)O	-	fluorescence	-	10 ± 6.1 µg/mL	11.6%
CC(C)[C@H](NC(=O)OCc1ccccc1)C(=O)N[C@@H](CSc1ncccn1)[C@@H](O)[C@H](O)[C@H](CSc1ncccn1)NC(=O)[C@@H](NC(=O)OCc1ccccc1)C(C)C	-	fluorescence	-	0.1 µM	70%
Cc1cccc(C)c1OCC(=O)N[C@@H](Cc1ccccc1)[C@H](O)C(=O)N1CSC(C)(C)[C@H]1C(=O)NC(C)(C)C	-	-	-	0.05 µM	95.9%
CC(=O)N[C@@H](Cc1ccccc1)C(O)[C@H](Cc1ccccc1)NC(C)=O	-	fluorescence	-	10 µM	12%
CC(C(=O)O)C(C)C(=O)N[C@@H](Cc1ccccc1)[C@H](O)C(=O)N1CSC(C)(C)[C@H]1C(=O)NC(C)(C)C	-	-	-	0.05 µM	77.5%
CC[C@H](C)[C@H](NC(=O)[C@@H]1CCCN1C(=O)[C@H](O)[C@H](Cc1ccccc1)NC(=O)[C@H](CC(N)=O)NC(=O)[C@H](Cc1ccccc1)NC(=O)[C@@H](N)CO)C(=O)N[C@H](C(N)=O)C(C)C	-	-	-	5 µM	96.8%
O=C1OC2[C@@H](CO)O[C@@H](OC(=O)c3cc(O)c(O)c(O)c3)[C@H](OC(=O)c3cc(O)c(O)c4c3[C@@H]3C1=CC(=O)C(O)(O)C3(O)O4)[C@H]2O	-	fluorescence	-	50 µg/mL	42.7%
C=C(C)C1CCC2[C@]3(CC[C@]4(C)/C(=C(\C)CC/C=C(/C)C(=O)O)CC[C@@]24C)C[C@]13CCC(=O)O	-	fluorescence	-	10 ± 8.8 µg/mL	56.1%
CC(=O)OC1C(COC(=O)/C=C/c2ccc(O)cc2)OC(COC(=O)/C=C/c2ccc(O)cc2)(OC2OC(COC(=O)/C=C/c3ccc(O)cc3)[C@@H](OC(C)=O)[C@H](O)[C@H]2O)C1OC(=O)/C=C/c1ccc(O)cc1	-	substrate cleavage / fluorescence	-	1000 µg/mL	56.51%
CCOc1ccccc1CNc1nc2nc3c(c(=O)n2[nH]1)CCC3	-	-	-	150 µM	24.56%
CC(C)[C@H](NC(=O)CCc1ccccn1)C(=O)N[C@@H](Cc1ccccc1)[C@@H](O)[C@H](O)[C@H](Cc1ccccc1)NC(=O)[C@@H](NC(=O)CCc1ccccn1)C(C)C	-	fluorescence	-	0.001 µM	69%
COc1ccc(-c2cc(=O)c3c(O)cc(OC4OC(COC5OC(C)C(O)C(O)C5O)C(O)C(O)C4O)cc3o2)cc1	-	HPLC	-	50 µg/mL	0%
CC(C)[C@H](NC(=O)OCc1ccccc1)C(=O)N[C@@H](Cc1ccccc1)[C@@H](O)[C@H](O)[C@H](Cc1ccccc1)NC(=O)[C@@H](NC(=O)OCc1ccccc1)C(C)C	-	fluorescence	-	0.001 µM	74%
Cc1cc(N)cc(C)c1OCC(=O)N[C@@H](Cc1ccccc1)[C@H](O)C(=O)N1CSC(C)(C)[C@H]1C(=O)N[C@H]1c2ccccc2C[C@H]1O	-	substrate cleavage	-	0.05 µM	96%
Cc1ccccc1CNC(=O)[C@H]1N(C(=O)[C@@H](O)[C@H](Cc2ccccc2)NC(=O)c2cccc(O)c2C)CSC1(C)C	-	HPLC	-	0.05 µM	96%
CC(C)(C)OC(=O)N[C@@H](Cc1ccccc1)C(O)C(O)[C@H](Cc1ccccc1)NC(=O)OC(C)(C)C	-	fluorescence	-	0.01 µM	40%
CC(C)[C@H](N)C(=O)N[C@H](C(=O)N[C@@H](CC(N)=O)C(=O)O)[C@@H](C)O	BH10	HPLC	-	100 µM	<1%
CC1=CC(C)(C)Nc2ccc(OC(=O)c3cccc4ccccc34)cc21	-	-	-	150 µM	34.66%
O=C(N[C@@H](Cc1ccccc1)[C@H](Cc1ccccc1)n1cc(CN2CCN(C(=O)OCc3ccccc3)CC2)nn1)OC1CCCC1	-	fluorescence	-	5 µM	33%
CC(C)(C)OC(=O)N[C@@H](Cc1ccccc1)[C@H](O)CNC[C@@H](O)[C@H](Cc1ccccc1)NC(=O)COc1ccccc1	-	HPLC	pH 5.5	10 µM	>51%
Cc1cccc(C)c1OCC(=O)N[C@@H](Cc1ccccc1)[C@H](O)C(=O)N1CSC(C)(C)[C@H]1C(=O)NC(C)(C)c1ccccc1	-	HPLC	-	0.05 µM	72.5%
C=C1C(C(C)C2CC=C(C)C(=O)O2)=CC[C@]2(C)C1C[C@]1(O)C=C3C=CC(=O)OC(C)(C)C3CCC21	-	fluorescence	-	10 ± 0.7 µg/mL	18.1%
CC(C)[C@H](NC(=O)c1cccnc1)C(=O)NC(Cc1ccccc1)C(O)C(O)C(Cc1ccccc1)NC(=O)[C@@H](NC(=O)c1cccnc1)C(C)C	-	fluorescence	-	0.005 µM	58%
CC1=CCC(C(C)C2=C(C)C3C[C@]4(O)C=C5C=CC(=O)OC(C)(C)C5[C@H](O)CC4[C@]3(C)C=C2)OC1=O	-	fluorescence	-	10 ± 11.9 µg/mL	11.8%
C[C@@H]1O[C@@H](OC[C@H]2O[C@@H](Oc3c(-c4ccc(O)cc4)oc4cc(O[C@@H]5O[C@@H](C)[C@H](O)[C@@H](O)[C@H]5O)cc(O)c4c3=O)[C@H](O)[C@@H](O)[C@H]2O)[C@H](O)[C@H](O)[C@H]1O	-	HPLC	-	50 µg/mL	18.4%
Cc1cccc(C)c1OCC(=O)N[C@@H](Cc1ccccc1)[C@H](O)C(=O)N1CSC(C)(C)[C@H]1C(=O)NCc1cccc(C(N)=O)c1	-	HPLC	-	0.05 µM	67.7%
COC(=O)NC(C(=O)N[C@@H](Cc1ccccc1)[C@H](O)CNC[C@@H](O)[C@H](Cc1ccccc1)NC(=O)OC(C)(C)C)C(C)(C)C	-	HPLC	pH 5.5	10 µM	28%
O=C1O[C@H]2[C@@H]3OC(=O)c4cc(O)c(O)c(O)c4-c4c(cc(O)c(O)c4O)C(=O)OC[C@H]2O[C@@H](OC(=O)c2cc(O)c(O)c(O)c2)[C@@H]3OC(=O)c2cc(O)c(O)c3c2[C@@H]2C1=CC(=O)[C@](O)(O3)C2(O)O	-	fluorescence	-	50 µg/mL	81%
Cc1c(O)cccc1C(=O)N[C@@H](Cc1ccccc1)[C@H](O)C(=O)N1CSC(C)(C)[C@H]1C(=O)NC(C)(C)C	-	HPLC	-	0.05 µM	87.6%
CC1=CC(C)(C)Nc2ccc(OC(=O)c3ccccc3Br)cc21	-	-	-	150 µM	34.67%
CC[C@H](C)/C=C(C)/C=C/C(=O)Cc1cc(O)c(C)c(O)c1C=O	-	HPLC	-	100 µg/mL	0%
CC(C)[C@H](NC(=O)CCc1cccnc1)C(=O)N[C@@H](Cc1ccccc1)C(O)[C@H](Cc1ccccc1)NC(=O)[C@@H](NC(=O)CCc1cccnc1)C(C)C	-	fluorescence	-	0.1 µM	81%
Cc1ccccc1CNC(=O)[C@H]1N(C(=O)[C@@H](O)[C@H](Cc2ccccc2)NC(=O)c2ccc(F)c(O)c2C)CSC1(C)C	-	HPLC	-	0.05 µM	88%
Cc1c(O)cccc1C(=O)N[C@@H](Cc1ccccc1)[C@H](O)C(=O)N1CSC(C)(C)[C@H]1C(=O)NCc1ccncc1	-	HPLC	-	0.05 µM	34.5%
CC(C)(CO)OC(=O)N[C@@H](Cc1ccccc1)[C@@H](O)C[C@@H](Cc1ccc(OCCN2CCOCC2)cc1)C(=O)N[C@H]1c2ccccc2C[C@H]1O	-	HPLC	-	0.0025 µg/mL	54%

Again, the opening 4 rows:

| SMILES | strain or isolate | method | conditions | tested at | result |
|---|---|---|---|---|---|
| Cc1c(O)cccc1C(=O)N[C@@H](Cc1ccccc1)[C@H](O)C(=O)N1CSC(C)(C)[C@H]1C(=O)NCc1cccnc1 | - | HPLC | - | 0.05 µM | 62.6% |
| CC(C)(C)NC(=O)[C@@H]1CCCN1C(=O)[C@@H](O)[C@H](Cc1ccccc1)NC(=O)[C@H](CC(N)=O)NC(=O)c1ccc2ccccc2n1 | - | - | - | 0.05 µM | 72.7% |
| C[C@@H]1O[C@@H](Oc2c(-c3cc(O)c(O)c(O)c3)oc3cc(O)cc(O)c3c2=O)[C@H](O)[C@H](O)[C@H]1O | - | fluorescence | - | 50 µg/mL | 50.4% |
| Cc1cccc(C)c1OCC(=O)N[C@@H](Cc1ccccc1)[C@H](O)C(=O)N1CSC(C)(C)[C@H]1C(=O)NCc1cccnc1 | - | HPLC | - | 0.05 µM | 86.8% |